Numbers after ± are expanded uncertainties.
Key:
[1] = 101.33 kPa, Liquid; for speed of sound: Sing-around technique in a fixed-path interferometer; for mass density: Vibrating tube method
[2] = xn = mol fraction of the nth substance listed; conditions: 101 kPa, Liquid, Vibrating tube method

CCCCOP(=O)(OCCCC)OCCCC [tributyl phosphate]
[1]
Conditions	mass density [kg/m3]	speed of sound [m/s]
298.15 K	973.85 ± 0.23	1272 ± 2
303.15 K	969.44 ± 0.23	1255 ± 2
308.15 K	965.04 ± 0.23	1238 ± 2
313.15 K	960.62 ± 0.23	1221 ± 2
318.15 K	956.19 ± 0.23	1204 ± 2
323.15 K	951.75 ± 0.23	1188 ± 2

CCCCOP(=O)(OCCCC)OCCCC [tributyl phosphate] + C1CCCCC1
mass density [kg/m3], [2]
Conditions	x1 = 0.099	x1 = 0.1993	x1 = 0.3025	x1 = 0.4042	x1 = 0.5063	x1 = 0.6083	x1 = 0.7024	x1 = 0.8027	x1 = 0.902
298.15 K	814.12 ± 0.67	846.89 ± 0.6	874.05 ± 0.49	896.02 ± 0.42	914.55 ± 0.36	930.06 ± 0.33	942.9 ± 0.3	954.19 ± 0.28	964.39 ± 0.29
303.15 K	809.42 ± 0.67	842.23 ± 0.6	869.46 ± 0.5	891.48 ± 0.42	910.06 ± 0.36	925.63 ± 0.33	938.5 ± 0.3	949.8 ± 0.28	960.02 ± 0.29
308.15 K	804.71 ± 0.67	837.55 ± 0.6	864.84 ± 0.5	886.94 ± 0.42	905.53 ± 0.36	921.2 ± 0.33	934.1 ± 0.3	945.4 ± 0.29	955.65 ± 0.29
313.15 K	799.98 ± 0.67	832.86 ± 0.61	860.21 ± 0.5	882.38 ± 0.42	901.04 ± 0.37	916.76 ± 0.33	929.69 ± 0.3	941.01 ± 0.29	951.27 ± 0.29
318.15 K	795.24 ± 0.67	828.15 ± 0.61	855.57 ± 0.5	877.81 ± 0.42	896.51 ± 0.37	912.31 ± 0.33	925.28 ± 0.3	936.6 ± 0.29	946.89 ± 0.29
323.15 K	790.47 ± 0.67	823.42 ± 0.61	850.91 ± 0.5	873.23 ± 0.43	891.96 ± 0.37	907.86 ± 0.33	920.86 ± 0.3	932.19 ± 0.29	942.5 ± 0.29
